Results of unrelated studies side by side (data: NIAID ChemDB).

All rows: target-level tests; protein: CCR5; read-out: IC50

Rows are shuffled and stem from different studies. ICn is the concentration giving n% inhibition.

| structure | read by | value |
|---|---|---|
| CCCCOCCOc1ccc(-c2ccc3c(c2)C=C(C(=O)Nc2ccc(S(=O)Cc4nccn4CC(C)C)cc2)CCN3CC(C)C)cc1 | radiometric | 0.0087 µM |
| CCCCOCCOc1ccc(-c2ccc3c(c2)C=C(C(=O)Nc2ccc(CN(C)C4CCOCC4)cc2)CCN3Cc2nccs2)cc1 | radiometric | 0.012 µM |
| CCN(C(=O)Cc1ccc(S(C)(=O)=O)cc1)C1CCN(CC[C@H](NC(=O)C2CCN(C(=O)C(C)C)CC2)c2ccccc2)CC1 | fluorescence | <50 µM |
| CCCCOCCOc1ccc(-c2ccc3c(c2)C=C(C(=O)Nc2ccc(C(O)c4cccc(C)[n+]4[O-])cc2)CCN3CC(C)C)cc1 | radiometric | 0.18 µM |
| Cc1ccc(-c2ccc3c(c2)C=C(C(=O)Nc2ccc(CN(C)C4CCOCC4)cc2)CCS3=O)cc1 | radiometric | 0.3 µM |
| CCCCOCCOc1ccc(-c2ccc3c(c2)C=C(C(=O)Nc2ccc(C(O)c4cccc[n+]4[O-])c(C(F)(F)F)c2)CCN3CC(C)C)cc1 | radiometric | 0.014 µM |
| CCCCOCCOc1ccc(-c2ccc3c(c2)C=C(C(=O)Nc2ccc([S@@](=O)Cc4cncn4CCC)cc2)CCN3CC(C)C)cc1 | radiometric | 0.0019 µM |
| CC(=O)N1CCC(C(=O)N(CCCN2CCC(Cc3ccc(F)cc3)CC2)c2ccc(C(C)C)c(Cl)c2)CC1 | radiometric | 0.018 µM |
| CCCCOCCOc1ccc(-c2ccc3c(c2)C=C(C(=O)Nc2ccc(S(=O)Cc4ccccn4)cc2)CCN3CCC)cc1 | radiometric | 0.067 µM |
| CCCCOCCOc1ccc(-c2ccc3c(c2)C=C(C(=O)Nc2ccc(CN(C)C4CCOCC4)cc2)CCN3CCC(C)C)cc1 | radiometric | 0.032 µM |
| CCO/N=C(\c1ccc(Br)cc1)C1CCN(C2(C)CCN(C(=O)c3c(C)cc[n+]([O-])c3C)CC2)CC1 | fluorescence | <1 µM |
| CCCCOCCOc1ccc(-c2ccc3c(c2)C=C(C(=O)Nc2ccc([C@H](O)c4cccc[n+]4[O-])cc2)CCN3Cc2cnn(C)c2)cc1 | radiometric | 0.017 µM |
| CCN(C(=O)Cc1ccc(S(C)(=O)=O)cc1)C1CCN(CC[C@H](NC(=O)OC(C)(C)C)c2ccccc2)CC1 | fluorescence | <50 µM |
| CCN(C(=O)Cc1ccc(S(C)(=O)=O)cc1)C1CCN(CCC(c2cccc(F)c2)C2CCN(Cc3cccnc3)CC2)CC1 | radiometric | 0.001 µM |
| CC(=O)N1CCC(C(=O)N(CCCN2CCC(Cc3ccc(F)cc3)CC2)c2ccc(C)c(Cl)c2)CC1 | radiometric | 0.00029 µM |
| Cc1ccc(-c2ccc3c(c2)C=C(C(=O)Nc2ccc(C[N+](C)(C)C4CCOCC4)cc2)CCC3)cc1 | radiometric | 0.0014 µM |
| CC(=O)N1CCC(C(=O)N(CCCN2CCC(Cc3ccc(F)cc3)CC2)c2ccc(C(C)C)c(Cl)c2)CC1 | radiometric | 0.018 µM |
| CCCCOCCOc1ccc(-c2ccc3c(c2)C=C(C(=O)Nc2ccc(CN(C)C4CCOCC4)cc2)CCN3CC2CCC2)cc1 | radiometric | 0.012 µM |
| CS(=O)(=O)N1CCC(C(=O)N(CCCN2CCC(Cc3ccc([N+](=O)[O-])cc3)CC2)c2ccc(Cl)c(Cl)c2)CC1 | radiometric | 0.0024 µM |
| CCCCOCCOc1ccc(-c2ccc3c(c2)C=C(C(=O)Nc2ccc(C(O)c4c(C)ccc[n+]4[O-])cc2)CCN3CC(C)C)cc1 | radiometric | 0.13 µM |
| c1ccc(CC2CCN(CCCNc3ccccc3)CC2)cc1 | radiometric | >10 µM |
| NC(=O)c1ccc(NC(=O)N(CCCN2CCC(Cc3ccc(F)cc3)CC2)c2ccccc2)cc1 | radiometric | 0.029 µM |
| CCN(C(=O)NCc1ccc(S(C)(=O)=O)cc1)C1CCN(CCC(c2ccccc2)N2CCN(S(=O)(=O)CC)CC2)CC1 | radiometric | 0.006 µM |
| CN1CC(C(=O)N(CCCN2CCC(Cc3ccccc3)CC2)c2ccc(Cl)c(Cl)c2)CC1=O | radiometric | 0.057 µM |
| CN1CC(C(=O)N(CCCN2CCN(Cc3ccccc3)CC2)c2ccccc2)CC1=O | radiometric | 1.9 µM |
| CCCCOCCOc1ccc(-c2ccc3c(c2)C=C(C(=O)Nc2ccc([C@@H](O)c4cccc[n+]4[O-])c(C(F)(F)F)c2)CCN3CC(C)C)cc1 | radiometric | 0.043 µM |
| CCCCOCCOc1ccc(-c2ccc3c(c2)C=C(C(=O)Nc2ccc(CN(C)C4CCOCC4)cc2)CCN3CC2CC2)cc1 | radiometric | 0.0045 µM |
| CCCCOCCOc1ccc(-c2ccc3c(c2)C=C(C(=O)Nc2ccc([S@](=O)Cc4nncn4CCC)cc2)CCN3CCC)cc1 | radiometric | 0.0058 µM |
| c1cnc2c(NCc3ccc(CN4CCCNCCNCCCNCC4)cc3)cccc2c1 | fluorescence | <10 µM |
| CN1CCC(C(=O)Nc2ccc(CN(C)C3CCOCC3)cc2)=Cc2cc(-c3ccc(N4CCOCC4)cc3)ccc21 | radiometric | 0.049 µM |
| CSc1ccc(NC(=O)N(CCCN2CCC(Cc3ccc(F)cc3)CC2)c2ccccc2)cc1 | radiometric | 0.015 µM |
| CCN(C(=O)Cc1ccc(S(C)(=O)=O)cc1)C1CCN(CCC(c2ccccc2)C2CCN(C)CC2)CC1 | radiometric | 0.001 µM |
| CC(=O)N1CCC(C(=O)N(CCCCN2CCC(Cc3ccc(F)cc3)CC2)c2ccc(Cl)c(Cl)c2)CC1 | radiometric | 0.052 µM |
| CCN(C(=O)Cc1ccc(S(C)(=O)=O)cc1)C1CCN(CC[C@H](NC(=O)C2CCN(C(=O)C3CC3)CC2)c2ccccc2)CC1 | fluorescence | <50 µM |
| CCCOCCOc1ccc(-c2ccc3c(c2)C=C(C(=O)Nc2ccc(CN(C)C4CCOCC4)cc2)CCS3(=O)=O)cc1 | radiometric | 0.035 µM |
| CCN(C(=O)Cc1ccc(S(C)(=O)=O)cc1)C1CCN(CCC(c2ccccc2)N2CCN(S(=O)CC)CC2)CC1 | radiometric | 0.014 µM |
| Cc1ccc(-c2ccc3c(c2)C=C(C(=O)Nc2ccc(CN4CCCCC4)cc2)CCO3)cc1 | radiometric | 4 µM |
| CCCCOCCOc1ccc(-c2ccc3c(c2)C=C(C(=O)Nc2ccc([S@@](=O)Cc4nncn4CCC)cc2)CCN3CC(C)C)cc1 | radiometric | 0.0015 µM |
| CSc1ccc(CC2CCN(CCCN(C(=O)C3CCN(S(C)(=O)=O)CC3)c3ccc(Cl)c(Cl)c3)CC2)cc1 | radiometric | 0.0031 µM |
| Cc1ccc(-c2ccc3c(c2)C=C(C(=O)Nc2ccc(CN(C)CCCO)cc2)CCO3)cc1 | radiometric | 0.73 µM |
| CCc1ccc(-c2ccc3c(c2)C=C(C(=O)Nc2ccc(CN(C)C4CCOCC4)cc2)CCS3(=O)=O)cc1 | radiometric | 0.06 µM |
| CS(=O)(=O)N(CCCN1CCC(Cc2ccccc2)CC1)c1ccccc1 | radiometric | ~10 µM |
| CCCCOCCOc1ccc(-c2ccc3c(c2)C=C(C(=O)Nc2ccc(CN(C)C4CCOCC4)cc2)CCS3(=O)=O)cc1 | radiometric | 0.027 µM |
| O=C(Nc1ccc(Br)cc1)N(CCCN1CCC(Cc2ccc(F)cc2)CC1)c1ccccc1 | radiometric | 0.018 µM |
| c1ccc(-c2cccc(NCc3ccc(CN4CCCNCCNCCCNCC4)cc3)c2)cc1 | fluorescence | <10 µM |
| CCCCOCCOc1ccc(-c2ccc3c(c2)C=C(C(=O)Nc2ccc([S@](=O)Cc4cncn4CCC)cc2)CCN3CC(C)C)cc1 | radiometric | 0.0068 µM |
| CCCOCCOc1ccc(-c2ccc3c(c2)C=C(C(=O)Nc2ccc(CN(C)C4CCOCC4)cc2)CCN3CC)cc1 | radiometric | 0.017 µM |

Again, the opening 5 rows:

structure	read by	value
CCCCOCCOc1ccc(-c2ccc3c(c2)C=C(C(=O)Nc2ccc(S(=O)Cc4nccn4CC(C)C)cc2)CCN3CC(C)C)cc1	radiometric	0.0087 µM
CCCCOCCOc1ccc(-c2ccc3c(c2)C=C(C(=O)Nc2ccc(CN(C)C4CCOCC4)cc2)CCN3Cc2nccs2)cc1	radiometric	0.012 µM
CCN(C(=O)Cc1ccc(S(C)(=O)=O)cc1)C1CCN(CC[C@H](NC(=O)C2CCN(C(=O)C(C)C)CC2)c2ccccc2)CC1	fluorescence	<50 µM
CCCCOCCOc1ccc(-c2ccc3c(c2)C=C(C(=O)Nc2ccc(C(O)c4cccc(C)[n+]4[O-])cc2)CCN3CC(C)C)cc1	radiometric	0.18 µM
Cc1ccc(-c2ccc3c(c2)C=C(C(=O)Nc2ccc(CN(C)C4CCOCC4)cc2)CCS3=O)cc1	radiometric	0.3 µM